In US20110263540A1, “SMALL-MOLECULE INHIBITORS OF PROTEIN SYNTHESIS INACTIVATING TOXINS” (published 2011):

Target: ricin A chain (RTA) (Ricinus communis, UniProt P02879)
Experiment: Yeast cell-free in vitro translation assay with luciferase reporter (inhibition of RTA)
Conditions: read-out: IC50 for inhibiting RTA (estimated)

Row | Structure (SMILES) | IC50 [nM]
1 | COC(=O)C1=C(C)N/C(=C/c2ccc(C(=O)O)cc2)C1=O | 1
2 | O=C(O)CCCCCN1C(=O)c2ccc(CC(=O)O)cc2C1=O | 100
3 | CN(C)c1ccc(/C=N/Nc2cccc(C(=O)O)c2)cc1 | 10
